Data from patent US11078250B2, “High-activity long-acting hypoglycemic fusion protein as well as preparation method and medical application thereof” (China Pharmaceutical University, priority 2016, dated 2021).

Experiment: Expression in E. coli BL21 (DE3), 12% SDS-PAGE of broken cell supernatant
Settings: lactose induction 25° C. 15 h, supernatant of broken cell solution

| Substance | Soluble expression in E. coli (band at about 30 KD in supernatant) |
| --- | --- |
| EX-hIgG1Fc: fusion protein of wild Exendin-4, linker peptide, natural human IgG1 hinge region and constant regions CH2 and CH3; SEQ ID NO: 13 | cannot be expressed in a soluble form |
| EX-L21K-mhIgG1Fc: fusion protein of Exendin-4 mutant EX-L21K, Gly-rich linker peptide, optimally mutated human IgG1 hinge region and constant regions CH2 and CH3; SEQ ID NO: 11 | expressed in a soluble form |
